Anti-infective test results gathered from many reports (values: NIAID ChemDB through PubChem).

All rows: target-level tests; species: HIV-1; protein: Protease; read-out: IC50

Neighbouring rows are from separate reports.

CC[C@H](C)[C@H](NC(=O)[C@H](Cc1ccccc1)NCC(O)[C@H](Cc1ccccc1)NC(=O)OCc1ccccc1)C(=O)N[C@@H](Cc1ccccc1)C(=O)OC ; value: <10 µM
CCOC(=O)c1cccn1CC(O)CNc1ccccc1 ; value: >200 µM
CC(C)C[C@H](NC(=O)[C@@H](NC(=O)CCCCCCCCCCCCCCC(=O)N(O)[C@@H](CC(N)=O)C(=O)N[C@@H](Cc1ccccc1)C(=O)O)C(C)O)C(=O)N[C@@H](Cc1ccccc1)C(N)=O ; value: 4.4 µM
CC(C)(C)NC(=O)[C@@H]1CCCN1C(=O)[C@@H](O)[C@H](Cc1ccccc1)NC(=O)[C@H](CC(N)=O)NC(=O)OCc1ccccc1 ; value: 0.089 µM
C=CCOC1C[C@@H](C(=O)NC(C)(C)C)N(C(=O)[C@@H](O)[C@H](Cc2ccccc2)NC(=O)[C@H](CS(C)(=O)=O)NC(=O)COc2cccc3ccccc23)C1 ; value: >0.05 µM
CCOC(=O)c1cn(CC(O)CNc2ccccc2N)cc1-c1ccccc1 ; value: >200 µM
CC(C)[C@H](N)C(=O)N[C@H](C(=O)N[C@@H](Cc1ccccc1)[C@@H](O)C(=O)N[C@H](Cc1ccccc1)C(=O)N[C@@H](C(=O)N[C@@H](C(N)=O)C(C)C)C(C)C)C(C)C ; value: <1000 µM
CCOC(=O)c1cn(CC(O)CNc2ccc(C)cc2)cc1-c1ccccc1 ; value: >200 µM
Cc1cccc(C)c1OCC(=O)N[C@@H](Cc1ccccc1)[C@@H](O)C[C@H](Cc1ccccc1)NC(=O)[C@H](C(C)C)N1CCNC1=O ; value: <0.0005 µM
Nc1ncnc2c1ncn2[C@@H]1O[C@H](CO)[C@@H](O)[C@H]1O ; value: >100 µM
CC(C)C[C@H](NC(=O)[C@H](CC(=O)O)NC(=O)CCCCCCCCCCCCCCC(=O)N[C@@H](CC(N)=O)C(=O)N[C@@H](Cc1ccccc1)C(=O)O)C(=O)N[C@@H](Cc1ccccc1)C(N)=O ; value: >5.5 µM
C=C(C)[C@@H]1CC[C@]2(C(=O)O)CC[C@]3(C)[C@H](CC[C@@H]4[C@@]5(C)CC[C@H](OC(=O)CCC(=O)OC)C(C)(C)C5CC[C@]43C)[C@@H]12 ; value: 40 µM
Cc1cccc(C)c1OCC(=O)N[C@@H](Cc1ccccc1)[C@@H](O)C[C@H](Cc1ccccc1)NC(=O)[C@H](C(C)C)N1CCCN(C)C1=O ; value: <0.0005 µM
CC(C)CCN(C[C@@H](O)[C@H](Cc1ccccc1)NC(=O)[C@H](Cc1cnc[nH]1)NC(=O)c1ccc2ccccc2n1)S(=O)(=O)c1ccccc1 ; value: 0.003 µM
CC(C)(C)OC(=O)N[C@H]1CC(=O)NCCNC(=O)C[C@@H](C(N)=O)NC(=O)[C@H](Cc2ccccc2)NCC(O)[C@H](Cc2ccccc2)NC1=O ; value: >10 µM
CC[C@H](C)[C@H](NC(=O)[C@@H]1CCCN1C(=O)[C@@H](O)[C@H](Cc1ccccc1)NC(=O)[C@H](CO)NC(=O)Cc1ccccc1)C(=O)N[C@H](C(N)=O)C(C)C ; value: 5.041 µM
Cc1cccc(C)c1OCC(=O)N[C@@H](Cc1ccccc1)[C@@H](O)C[C@H](Cc1ccccc1)NC(=O)[C@H](C(C)C)N1CCNC(=O)C1=O ; value: <0.0005 µM
COC(=O)CCCC(=O)O[C@H]1CC[C@@]2(C)C(CC[C@]3(C)C2CC=C2C4[C@@H](C)[C@H](C)CC[C@]4(C(=O)OC)CC[C@]23C)C1(C)C ; value: >50 µM
CC[C@@H](C)[C@H](NC(=O)[C@@H]1CCCN1C(=O)[C@@H](O)[C@H](Cc1ccccc1)NC(=O)[C@H](CC(N)=O)NC(=O)CCc1ccccc1)C(N)=O ; value: ~5 µM
C[C@H]1[C@H](C)CC[C@]2(C(=O)O)CC[C@]3(C)C(=CC[C@@H]4[C@@]5(C)CC[C@H](OC(=O)CCC(=O)O)C(C)(C)[C@@H]5CC[C@]43C)[C@H]12 ; value: 6 µM
CC(C)(C)NC(=O)[C@@H]1C[C@@H](C2CCCCC2)CN1C(=O)[C@@H](O)[C@H](Cc1ccccc1)NC(=O)[C@H](CC(N)=O)NC(=O)OCc1ccccc1 ; value: >0.05 µM
C[C@H]1[C@H](C)CC[C@]2(C)CC[C@]3(C)C(=CC[C@@H]4[C@@]5(C)CC[C@H](O)C(C)(C)[C@@H]5CC[C@]43C)[C@H]12 ; value: 80 µM
CC(CC(N)=O)NC(=O)[C@@H]1CSCN1C(=O)[C@@H](O)[C@H](Cc1ccccc1)NC(=O)[C@H](CS(C)(=O)=O)NC(=O)COc1cccc2ccccc12 ; value: <0.05 µM
CC[C@H](C)[C@H](NC(=O)[C@H](Cc1ccccc1)NCC(O)[C@H](Cc1ccccc1)NC(=O)OC(C)(C)C)C(=O)N[C@@H](Cc1ccccc1)C(=O)OC ; value: <10 µM
CS(=O)(=O)C[C@H](NC(=O)COc1cccc2ccccc12)C(=O)N[C@@H](Cc1ccccc1)[C@H](O)C(=O)N1CSC[C@H]1C(=O)NCC(N)=O ; value: >0.05 µM
CC[C@H](C)C(NC(=O)CNCC(O)[C@H](Cc1ccccc1)NC(=O)OCc1ccccc1)C(=O)N[C@@H](Cc1ccccc1)C(=O)OC ; value: >10 µM
CC(C)CCN(C[C@@H](O)[C@H](Cc1ccccc1)NC(=O)OCc1ccccc1)S(C)(=O)=O ; value: <10 µM
CCOC(=O)c1cn(CC(O)CNc2ccccc2Cl)cc1-c1ccccc1 ; value: >200 µM
CC[C@H](C)[C@H](NC(=O)[C@@H]1CCCN1C(=O)[C@H](O)[C@H](Cc1ccccc1)NC(=O)[C@H](CC(N)=O)NC(=O)CCc1ccccc1)C(=O)N[C@H](C(N)=O)C(C)C ; value: 3 µM
CC(C)C[C@H](NC(=O)[C@@H](NC(=O)CCCCCCCCCCCCCCC(=O)N[C@@H](CC(N)=O)C(=O)N[C@@H](Cc1ccccc1)C(=O)O)C(C)O)C(=O)N[C@@H](CCc1ccccc1)C(N)=O ; value: 2 µM
CC[C@H](C)[C@H](NC(=O)[C@@H]1CCCN1C(=O)[C@H](O)[C@H](CC1CCCCC1)NC(=O)[C@H](CC(N)=O)NC(=O)CCc1ccccc1)C(=O)N[C@H](C(N)=O)C(C)C ; value: >10 µM
COc1ccc(S(=O)(=O)N(CC(C)C)C[C@@H](O)[C@H](Cc2ccccc2)NC(=O)c2ccncc2)cc1 ; value: 0.018 µM
Cc1ccc(-c2c3c(n([C@@H]4O[C@H](CO)[C@H](O)[C@H](O)[C@H]4O)c(=S)c2C#N)-c2ccccc2C3)cc1 ; value: >100 µM
CC(CNC(=O)[C@@H]1CSCN1C(=O)[C@@H](O)[C@H](Cc1ccccc1)NC(=O)[C@H](CS(C)(=O)=O)NC(=O)COc1cccc2ccccc12)C(N)=O ; value: ~0.05 µM
CC(C)CCN(C[C@@H](O)[C@H](Cc1ccccc1)NC(=O)OCc1ccccc1)S(=O)(=O)c1ccc([N+](=O)[O-])cc1 ; value: 0.01 µM
CC(C)(C)NC(=O)c1ccccc1NCC(O)Cn1cc(C(=O)NC(C)(C)C)c(-c2ccccc2)c1 ; value: 161 µM
COC(=O)[C@]12CC[C@@H](C)[C@H](C)[C@H]1C1=CC[C@@H]3[C@@]4(C)CC[C@H](O)C(C)(C)[C@@H]4CC[C@@]3(C)[C@]1(C)CC2 ; value: 14 µM
CC[C@H](C)[C@H](NC(=O)[C@@H]1CCCN1C(=O)[C@H](O)[C@H](Cc1ccccc1)NC(=O)[C@H](CO)NC(=O)Cc1ccccc1)C(=O)N[C@H](C(N)=O)C(C)C ; value: ~5 µM
CC[C@H](C)[C@H](NC(=O)[C@@H](NC(=O)CCCCCCCCCCCCCCC(=O)N[C@@H](CC(N)=O)C(=O)N[C@@H](Cc1ccccc1)C(=O)O)C(C)O)C(=O)N[C@@H](Cc1ccccc1)C(N)=O ; value: 2.48 µM

A second listing of 6 rows from above:

| structure | value |
|---|---|
| CC(C)(C)OC(=O)N[C@H]1CC(=O)NCCNC(=O)C[C@@H](C(N)=O)NC(=O)[C@H](Cc2ccccc2)NCC(O)[C@H](Cc2ccccc2)NC1=O | >10 µM |
| CC[C@H](C)[C@H](NC(=O)[C@@H]1CCCN1C(=O)[C@H](O)[C@H](Cc1ccccc1)NC(=O)[C@H](CO)NC(=O)Cc1ccccc1)C(=O)N[C@H](C(N)=O)C(C)C | ~5 µM |
| CC(C)CCN(C[C@@H](O)[C@H](Cc1ccccc1)NC(=O)OCc1ccccc1)S(=O)(=O)c1ccc([N+](=O)[O-])cc1 | 0.01 µM |
| CC(CC(N)=O)NC(=O)[C@@H]1CSCN1C(=O)[C@@H](O)[C@H](Cc1ccccc1)NC(=O)[C@H](CS(C)(=O)=O)NC(=O)COc1cccc2ccccc12 | <0.05 µM |
| Cc1cccc(C)c1OCC(=O)N[C@@H](Cc1ccccc1)[C@@H](O)C[C@H](Cc1ccccc1)NC(=O)[C@H](C(C)C)N1CCNC(=O)C1=O | <0.0005 µM |
| CCOC(=O)c1cn(CC(O)CNc2ccc(C)cc2)cc1-c1ccccc1 | >200 µM |

ICn: concentration for n% inhibition.